The source of these data is patent US20040242870A1, “Antiviral methods and compounds” (priority 2000, published 2004).

In the data set the test system is HIV-1 strain RoJo. Briefly: PBMC time-of-addition assay (RT in cell-free supernatant at 6 days). It is filed as cell-based. To be noted: −4 h pre (relative to infection). How it is done:
Peripheral blood monocular cells (PBMCs) were obtained from normal hepatitis and HIV-1 negative donors by ficoll hypaque gradient separation. The mononuclear cells were washed to remove residual separation media, counted, viability determined and resuspended in RPMI 1640 medium supplemented with 15 % FBS (heat inactivated), 2 mM L-glutamine, 100 U/mL penicillin, 100 μg/mL streptomycin, and 10 μg/mL gentamycin with 2 μg/mL phytohemagluttin (PHA) at 1×10^6 cells/mL. The cells were cultured for 48 to 72 h at 37° C., 5% CO2. Following incubation, cells were collected by centrifugation, washed and resuspended in RPMI 1640 supplemented with 15% FBS (heat inactivated), 2 mM L-glutamine, 100 U/mL penicillin, 100 μg/mL streptomycin, and 10 μg/mL gentamycin with 20 U/mL recombinant IL-2 (R & D Systems, Minneapolis, Minn.). IL-2 was included in the culture medium to maintain the cell division initiated by the PHA mitogenic stimulation, and promote optimal growing conditions for the PBMCs. The cultures were then maintained until use by ½ culture volume change with fresh IL-2 containing medium every 3 days.
Human peripheral blood mononuclear cells from a minimum of 2 donors, that have been blasted with PHA and IL-2, were counted, viability determined by Trypan Blue dye exclusion and mixed in equal ratios. Pooled donors were used to minimize the variability observed between individual donors which results from quantitative and qualitative differences in HIV infection and overall response to the PHA and IL-2 of primary lymphocyte populations. The cells were resuspended at 1×10^6 cells/mL in RPMI 1640 without phenol red supplemented with 15% Fetal Bovine Serum (heat inactivated), 2 mM L-glutamine, 100 U/mL penicillin, 100 μg/mL streptomycin, 10 μg/Ln gentamycin and IL-2 (20 U/mL, R&D Systems, Minneapolis, Minn.). Fifty microliters of cells were then distributed to the inner 60 wells of a 96 well round bottom microtiter culture plate in a standard format developed by the Infectious Disease Research department of Southern Research Institute. Each plate contains cell control wells (cells only), virus control wells (cells plus virus), and experimental wells (drug plus cells plus virus). Alternatively, cells were cultured in T25 cm^2 or T75 cm^2 tissue culture flasks at a starting density of 1×10^6 cells per ml. Serially diluted compounds were added to the microtiter plate or tissue culture flask followed by the appropriate pre-titered strain of HIV-1. For virus replication inhibition experiments the HIV-1 strain RoJo was used. […] Culture were also examined microscopically, any abnormalities noted, and in the case of tissue culture flasks cell counts and viability determined by Trypan Blue Dye exclusion. […]

On to `Cc1cn([C@H]2C[C@H](N=[N+]=[N-])[C@@H](CO)O2)c(=O)[nH]c1=O` [AZT], for which the TI was greater than 5000.

Regarding `C=C(C)[C@@H]1CCC(C)=C[C@H]1c1c(O)cc(CCCCC)cc1O` [Cannabidiol, reference compound], the TI is recorded as greater than 8.3. For the compound `COc1cc(C(C)(C)CCCC(C)C)cc(OC)c1OC` [IG-07, 1-(1,1,5Trimethylhexyl)-3,4,5-trimethoxybenzene], the TI is reported as greater than 2.5. On to `CC(C)=CCCC1(C)CCc2c(O)cc(C(C)(C)CCCC(C)C)cc2O1` (stereo not shown) [IG-08, 3,4-Dihydro-2-methyl-2-(4-methyl-3-pentenyl)-7-(1,1,5-trimethylhexyl)-2H-1-benzopyran-5-ol], for which the TI was greater than 16.
